From PMC8001737, “Isolation and Characterization of Cross-Reactive Human Monoclonal Antibodies That Potently Neutralize Australian Bat Lyssavirus Variants and Other Phylogroup 1 Lyssaviruses” (Viruses, 2021) come the findings set out here.

This experiment has as its target ABLVs glycoprotein (G), on recombinant vesicular stomatitis virus rVSV-ABLVs-G (Australian bat lyssavirus (isolate …, UniProt Q9QSP1, strain)). As to the kind of experiment: ELISA.

B1: Fab A6 (phage-displayed) (Fab, V domains shown)
VH: EVQLVQSGAEVKKPGASVKVSCKASGYDFTDFYVHWVRQAPGQRLEWMGWINPGSGATDYAQKFQGRVTMTRDTSISTAYMEVSRLRSDDTAMYYCARPNAPRYMERLSATPSFDSWGQGTLVTVS
VL: EIVLTQSPGTLSLSPGEGATLSCRASQSVSSINLAWYQQKPGQAPRLLMYGASTRATGIPDRFSGSGSGTDFTLTISRLESEDFAVYYCQQYGSSPLTFGGGTKVEIK
Regarding B1, the binding result (partners not purified) is “binds”.

B2: human monoclonal antibody A6 (IgG1) (antibody, V domains shown)
VH: B1 VH
VL: B1 VL
notes: also called hmAb A6; copies: 2 + 2
On to B2, for which the binding result (one partner purified) is “binds”.
